Holding throughout (test): cell-based or functional assay
Test [1] deals with HIV-1 envelope glycoprotein gp120 of viral isolate 92US657 (HIV-1).
The target of test [2] is HIV-1 envelope glycoprotein gp120 of viral isolate 92US712 (HIV-1).
Test [3] deals with HIV-1 envelope glycoprotein gp120 of virus BaL (HIV-1 BaL (lab adapted strain, subtype …)).
Test [4] addresses HIV-1 envelope glycoprotein gp120 of virus 92US657 (HIV-1 subtype B, isolate 92US657).
Test [5] addresses HIV-1 envelope glycoprotein (gp120) of virus 92US727 (HIV-1).
The target of test [6] is HIV-1 envelope glycoprotein (gp120) of virus 7141 (HIV-1).
Test [7] has as its target HIV-1 envelope glycoprotein (gp120) of virus VS001 (HIV-1).
Test [8] deals with HIV-1 envelope glycoprotein (gp120) of virus 92US712 (HIV-1).

A value given as a limit tells only on which side of the number the result lay.

B1: Antibody A-6 (antibody)
heavy: QVQLLQSGAAVTKPGASVRVSCEASGYNIRDYFIHWWRQAPGQGLQWVGWINPKTGQPNNPRQFQGRVSLTRHASWDFDTFSFYMDLKALRSDDTAVYFCARQRSDYWDFDVWGSGTQVTVSSASTKGPSVFPLAPSSKSTSGGTAALGCLVKDYFPEPVTVSWNSGALTSGVHTFPAVLQSSGLYSLSSVVTVPSSSLGTQTYICNVNHKPSNTKVDKKVEPKSCDKTHTCPPCPAPELLGGPSVFLLPPKPKDTLMISRTPEVTCVVVDVSHEDPEVKFNWYVDGVEVHNAKTKPPEEQYNSTLRVVSILTVLHQDWLNGKEYKCKVSNKALPAPIEKTISKAKGQPREPQVYTLPPSREEMTKNQVSLTCLVKGFYPSDIAVEWESNGQPENNYKTTPLVLDSDGSFFLYSKLTVDKSRWQQGNVFSCSVLHEALHSHYTQKSLSLSPGK
light: not shown
B1: in test [1], the “ADCC EC50 (µg/mL), NK Donor 1, 92US657-infected cells” value is 3.93 µg/mL; the “ADCC EC50 (µg/mL), NK Donor 2, 92US657-infected cells” value came to 1.21 µg/mL; the “ADCC EC50 (µg/mL), NK Donor 3, 92US657-infected cells” value was found to be 3.21 µg/mL; the “ADCC Emax (%), NK Donor 1, 92US657-infected cells” value was 54%. In test [1], the “ADCC Emax (%), NK Donor 2, 92US657-infected cells” value is 53% and the “ADCC Emax (%), NK Donor 3, 92US657-infected cells” value stood at 52%. Besides, in test [2], the “ADCC EC50 (µg/mL), NK Donor 1, 92US712-infected cells” value is 0.27 µg/mL; the “ADCC EC50 (µg/mL), NK Donor 2, 92US712-infected cells” value worked out at 0.54 µg/mL; the “ADCC EC50 (µg/mL), NK Donor 3, 92US712-infected cells” value came to 0.18 µg/mL; the “ADCC Emax (%), NK Donor 1, 92US712-infected cells” value is 68%. For the same molecule, in test [2], the “ADCC Emax (%), NK Donor 2, 92US712-infected cells” value was determined as 54% and the “ADCC Emax (%), NK Donor 3, 92US712-infected cells” value is 51%.

B2: Antibody A-2 (antibody)
heavy: QVQLLQSGAAVTKPGASVRVSCEASGYNIRDYFIHWWRQAPGQGLQWVGWINPKTGQPNNPRQFQGRVSLTRHASWDFDTFSFYMDLKALRSDDTAVYFCARQRSDYWDFDVWGSGTQVTVSSASTKGPSVFPLAPSSKSTSGGTAALGCLVKDYFPEPVTVSWNSGALTSGVHTFPAVLQSSGLYSLSSVVTVPSSSLGTQTYICNVNHKPSNTKVDKKVEPKSCDKTHTCPPCPAPELLAGPDVFLFPPKPKDTLMISRTPEVTCVVVDVSHEDPEVKFNWYVDGVEVHNAKTKPREEQYNSTYRVVSVLTVLHQDWLNGKEYKCKVSNKALPLPEEKTISKAKGQPREPQVYTLPPSREEMTKNQVSLTCLVKGFYPSDIAVEWESNGQPENNYKTTPPVLDSDGSFFLYSKLTVDKSRWQQGNVFSCSVMHEALHNHYTQKSLSLSPGK
light: not shown
As for B2, in test [1], the “ADCC EC50 (µg/mL), NK Donor 1, 92US657-infected cells” value is 0.54 µg/mL; the “ADCC EC50 (µg/mL), NK Donor 2, 92US657-infected cells” value was determined as 0.81 µg/mL; the “ADCC EC50 (µg/mL), NK Donor 3, 92US657-infected cells” value stood at 1.13 µg/mL; the “ADCC Emax (%), NK Donor 1, 92US657-infected cells” value was 59%. Also, in test [1], the “ADCC Emax (%), NK Donor 2, 92US657-infected cells” value came to 51% and the “ADCC Emax (%), NK Donor 3, 92US657-infected cells” value was determined as 56%. Further, in test [2], the “ADCC EC50 (µg/mL), NK Donor 1, 92US712-infected cells” value amounted to 0.18 µg/mL; the “ADCC EC50 (µg/mL), NK Donor 2, 92US712-infected cells” value worked out at 0.08 µg/mL; the “ADCC EC50 (µg/mL), NK Donor 3, 92US712-infected cells” value was 0.2 µg/mL; the “ADCC Emax (%), NK Donor 1, 92US712-infected cells” value was determined as 76%. In test [2], the “ADCC Emax (%), NK Donor 2, 92US712-infected cells” value was 60% and the “ADCC Emax (%), NK Donor 3, 92US712-infected cells” value came out at 60%.

B3: Antibody A-1 (antibody, human IgG1, kappa)
heavy: QVQLLQSGAAVTKPGASVRVSCEASGYNIRDYFIHWWRQAPGQGLQWVGWINPKTGQPNNPRQFQGRVSLTRHASWDFDTFSFYMDLKALRSDDTAVYFCARQRSDYWDFDVWGSGTQVTVSSASTKGPSVFPLAPSSKSTSGGTAALGCLVKDYFPEPVTVSWNSGALTSGVHTFPAVLQSSGLYSLSSVVTVPSSSLGTQTYICNVNHKPSNTKVDKKVEPKSCDKTHTCPPCPAPELLAGPDVFLFPPKPKDTLMISRTPEVTCVVVDVSHEDPEVKFNWYVDGVEVHNAKTKPREEQYNSTYRVVSVLTVLHQDWLNGKEYKCKVSNKALPLPEEKTISKAKGQPREPQVYTLPPSREEMTKNQVSLTCLVKGFYPSDIAVEWESNGQPENNYKTTPPVLDSDGSFFLYSKLTVDKSRWQQGNVFSCSVLHEALHSHYTQKSLSLSPGK
light: not shown
B3: the entries for the “Virus Neutralization Potency (IC50)” value in test [3] and in test [4] were 0.16 µg/mL and 1.31 µg/mL, respectively.

B4: Antibody A-3 (antibody)
heavy: QVQLLQSGAAVTKPGASVRVSCEASGYNIRDYFIHWWRQAPGQGLQWVGWINPKTGQPNNPRQFQGRVSLTRHASWDFDTFSFYMDLKALRSDDTAVYFCARQRSDYWDFDVWGSGTQVTVSSASTKGPSVFPLAPSSKSTSGGTAALGCLVKDYFPEPVTVSWNSGALTSGVHTFPAVLQSSGLYSLSSVVTVPSSSLGTQTYICNVNHKPSNTKVDKKVEPKSCDKTHTCPPCPAPELLGGPDVFLFPPKPKDTLMISRTPEVTCVVVDVSHEDPEVKFNWYVDGVEVHNAKTKPREEQYNSTYRVVSVLTVLHQDWLNGKEYKCKVSNKALPAPEEKTISKAKGQPREPQVYTLPPSREEMTKNQVSLTCLVKGFYPSDIAVEWESNGQPENNYKTTPPVLDSDGSFFLYSKLTVDKSRWQQGNVFSCSVLHEALHSHYTQKSLSLSPGK
light: not shown
As to B4, in test [1], the “ADCC EC50 (µg/mL), NK Donor 1, 92US657-infected cells” value turned out to be 0.68 µg/mL; the “ADCC EC50 (µg/mL), NK Donor 2, 92US657-infected cells” value came out at 0.67 µg/mL; the “ADCC EC50 (µg/mL), NK Donor 3, 92US657-infected cells” value turned out to be 1.39 µg/mL; the “ADCC Emax (%), NK Donor 1, 92US657-infected cells” value amounted to 49%. For the same molecule, in test [1], the “ADCC Emax (%), NK Donor 2, 92US657-infected cells” value was 49% and the “ADCC Emax (%), NK Donor 3, 92US657-infected cells” value was determined as 56%. In addition, in test [2], the “ADCC EC50 (µg/mL), NK Donor 1, 92US712-infected cells” value was 0.07 µg/mL; the “ADCC EC50 (µg/mL), NK Donor 2, 92US712-infected cells” value was determined as 0.08 µg/mL; the “ADCC EC50 (µg/mL), NK Donor 3, 92US712-infected cells” value was 0.2 µg/mL; the “ADCC Emax (%), NK Donor 1, 92US712-infected cells” value turned out to be 77%. In test [2], the “ADCC Emax (%), NK Donor 2, 92US712-infected cells” value was 59% and the “ADCC Emax (%), NK Donor 3, 92US712-infected cells” value came to 67%.

B5: 2.3.20-1 (antibody, human IgG1, kappa)
heavy: QVHLSQSGAAVTKPGASVRVSCEASGYNIRDYFIHWWRQAPGQGLQWVGWINPKTGQPNNPRQFQGRVSLTRHASWDFDTFSFYMDLKAVRSDDTAIYFCARQRSDYWDFDVWGSGTQVTVSSASTKGPSVFPLAPSSKSTSGGTAALGCLVKDYFPEPVTVSWNSGALTSGVHTFPAVLQSSGLYSLSSVVTVPSSSLGTQTYICNVNHKPSNTKVDKKVEPKSCDKTHTCPPCPAPELLAGPDVFLFPPKPKDTLMISRTPEVTCVVVDVSHEDPEVKFNWYVDGVEVHNAKTKPREEQYNSTYRVVSVLTVLHQDWLNGKEYKCKVSNKALPLPEEKTISKAKGQPREPQVYTLPPSREEMTKNQVSLTCLVKGFYPSDIAVEWESNGQPENNYKTTPPVLDSDGSFFLYSKLTVDKSRWQQGNVFSCSVLHEALHSHYTQKSLSLSPGK
light: not shown
For B5, the “Neutralization IC50” value in test [5] was over 50 µg/mL; in test [6], 15.9 µg/mL; in test [7] it was 1.23 µg/mL; in test [8], 0.08 µg/mL.

B6: Antibody A-5 (antibody)
heavy: QVQLLQSGAAVTKPGASVRVSCEASGYNIRDYFIHWWRQAPGQGLQWVGWINPKTGQPNNPRQFQGRVSLTRHASWDFDTFSFYMDLKALRSDDTAVYFCARQRSDYWDFDVWGSGTQVTVSSASTKGPSVFPLAPSSKSTSGGTAALGCLVKDYFPEPVTVSWNSGALTSGVHTFPAVLQSSGLYSLSSVVTVPSSSLGTQTYICNVNHKPSNTKVDKKVEPKSCDKTHTCPPCPAPELLGGPDVFLFPPKPKDTLMISRTPEVTCVVVDVSHEDPEVKFNWYVDGVEVHNAKTKPREEQYNSTYRVVSVLTVLHQDWLNGKEYKCKVSNKALPLPEEKTISKAKGQPREPQVYTLPPSREEMTKNQVSLTCLVKGFYPSDIAVEWESNGQPENNYKTTPPVLDSDGSFFLYSKLTVDKSRWQQGNVFSCSVLHEALHSHYTQKSLSLSPGK
light: not shown
For the molecule B6, in test [1], the “ADCC EC50 (µg/mL), NK Donor 1, 92US657-infected cells” value was found to be 0.57 µg/mL; the “ADCC EC50 (µg/mL), NK Donor 2, 92US657-infected cells” value was 0.83 µg/mL; the “ADCC EC50 (µg/mL), NK Donor 3, 92US657-infected cells” value stood at 0.76 µg/mL; the “ADCC Emax (%), NK Donor 1, 92US657-infected cells” value stood at 58%. Further, in test [1], the “ADCC Emax (%), NK Donor 2, 92US657-infected cells” value was 61% and the “ADCC Emax (%), NK Donor 3, 92US657-infected cells” value worked out at 61%. In test [2], the “ADCC EC50 (µg/mL), NK Donor 1, 92US712-infected cells” value turned out to be 0.19 µg/mL; the “ADCC EC50 (µg/mL), NK Donor 2, 92US712-infected cells” value was 0.08 µg/mL; the “ADCC EC50 (µg/mL), NK Donor 3, 92US712-infected cells” value is 0.09 µg/mL; the “ADCC Emax (%), NK Donor 1, 92US712-infected cells” value came to 79%. Further, in test [2], the “ADCC Emax (%), NK Donor 2, 92US712-infected cells” value came out at 61% and the “ADCC Emax (%), NK Donor 3, 92US712-infected cells” value came out at 66%.

B7: Antibody A-4 (antibody)
heavy: QVQLLQSGAAVTKPGASVRVSCEASGYNIRDYFIHWWRQAPGQGLQWVGWINPKTGQPNNPRQFQGRVSLTRHASWDFDTFSFYMDLKALRSDDTAVYFCARQRSDYWDFDVWGSGTQVTVSSASTKGPSVFPLAPSSKSTSGGTAALGCLVKDYFPEPVTVSWNSGALTSGVHTFPAVLQSSGLYSLSSVVTVPSSSLGTQTYICNVNHKPSNTKVDKKVEPKSCDKTHTCPPCPAPELLAGPDVFLFPPKPKDTLMISRTPEVTCVVVDVSHEDPEVKFNWYVDGVEVHNAKTKPREEQYNSTYRVVSVLTVLHQDWLNGKEYKCKVSNKALPAPEEKTISKAKGQPREPQVYTLPPSREEMTKNQVSLTCLVKGFYPSDIAVEWESNGQPENNYKTTPPVLDSDGSFFLYSKLTVDKSRWQQGNVFSCSVLHEALHSHYTQKSLSLSPGK
light: not shown
Regarding B7, in test [1], the “ADCC EC50 (µg/mL), NK Donor 1, 92US657-infected cells” value is 0.6 µg/mL; the “ADCC EC50 (µg/mL), NK Donor 2, 92US657-infected cells” value was 1.21 µg/mL; the “ADCC EC50 (µg/mL), NK Donor 3, 92US657-infected cells” value was 1.64 µg/mL; the “ADCC Emax (%), NK Donor 1, 92US657-infected cells” value worked out at 52%. Moreover, in test [1], the “ADCC Emax (%), NK Donor 2, 92US657-infected cells” value was 53% and the “ADCC Emax (%), NK Donor 3, 92US657-infected cells” value stood at 50%. For the same molecule, in test [2], the “ADCC EC50 (µg/mL), NK Donor 1, 92US712-infected cells” value was 0.2 µg/mL; the “ADCC EC50 (µg/mL), NK Donor 2, 92US712-infected cells” value was found to be 0.13 µg/mL; the “ADCC EC50 (µg/mL), NK Donor 3, 92US712-infected cells” value stood at 0.4 µg/mL; the “ADCC Emax (%), NK Donor 1, 92US712-infected cells” value stood at 78%. For the same molecule, in test [2], the “ADCC Emax (%), NK Donor 2, 92US712-infected cells” value worked out at 61% and the “ADCC Emax (%), NK Donor 3, 92US712-infected cells” value amounted to 64%.
